Data: patent US20110282030A1, “Chimeric natriuretic peptides without hypotensive inducing capability” (published 2011)

How the values were obtained:
human NPR-A (human) = human NPR-A (human) (UniProt P16066)
human NPR-B (human) = human NPR-B (human) (UniProt P20594); assay: cell-based or functional assay

Q: Which results are given for “CD-NP polypeptide (peptide; modification not given)”?
A: fold more peptide than ANP required to compete for ^125I-ANP (human NPR-A (human)): 1000 fold; EC50, cellular cGMP elevation in 293 cells expressing hNPR-B (human NPR-B (human)): 202 nM
